Measurements reported in PubChem BioAssay AID1259414 (Drosophila RNAi Screening Center, 2018)

- Test: 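Host factors increasing or decreasing Wolbachia levels in cultured fly cells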 (primary screen)
- Cell system: Drosophila JW18 cells infected with Wolbachia
- Reagents: long dsRNA against Drosophila genes, 0.25 µg dsRNA per well of a 384-well plate
- Timing: 5 days
- Treatment: cells persistently infected with Wolbachia before knock-down; no added drug
- Measured: 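Imaged fluorescence in situ signal for Wolbachia 23S rRNA per DAPI-counted host cell, given as a robust z-score within each plate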
- Scale: Wolbachia per cell robust z: higher = more Wolbachia per host cell than the plate typical
- Call rule: 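Hit when robust z is 1.5 or more, or -1.5 or less, in at least two of three replicates; excludes dsRNAs with several or no targets, genes not expressed in JW18 and well A1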
The screen tested about 24,000 reagents; below is an unselected part of those that have a named target and a result. Over the whole deposit, about 1,210 (5%) are marked active. 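Inactive calls also include excluded dsRNAs with several or no targets, genes unexpressed in JW18, and well A1, regardless of score.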 Reagents against one gene are numbered here.

For X11L (GeneID 252671) #1, how do the results read?
Wolbachia per cell robust z, rep 1: -0.371; Wolbachia per cell robust z, rep 2: -0.602; Wolbachia per cell robust z, rep 3: 0.136; Call: inactive

What did the screen give for X11L (GeneID 252671) #2?
Wolbachia per cell robust z, rep 1: -1.72; Wolbachia per cell robust z, rep 2: 0.403; Wolbachia per cell robust z, rep 3: -3.23; Call: active

What is on record for X11L (GeneID 252671) #3?
Wolbachia per cell robust z, rep 1: 1.07; Wolbachia per cell robust z, rep 2: 0.0728; Wolbachia per cell robust z, rep 3: -0.535; Call: inactive

How did the screen score CG32110 (GeneID 317858)?
Wolbachia per cell robust z, rep 1: 0.29; Wolbachia per cell robust z, rep 2: -1.69; Wolbachia per cell robust z, rep 3: 0.182; Call: inactive

How did the screen score CG16786 (GeneID 37856)?
Wolbachia per cell robust z, rep 1: 0.982; Wolbachia per cell robust z, rep 2: -0.309; Wolbachia per cell robust z, rep 3: -1.73; Call: inactive

With Mvl (GeneID 42490), what was measured?
Wolbachia per cell robust z, rep 1: -5.74; Wolbachia per cell robust z, rep 2: -8.91; Wolbachia per cell robust z, rep 3: -3.19; Call: active

What did the screen give for CG13742 (GeneID 35916)?
Wolbachia per cell robust z, rep 1: 0.695; Wolbachia per cell robust z, rep 2: -2.12; Wolbachia per cell robust z, rep 3: -0.494; Call: inactive

What is on record for lncRNA:CR32730 (GeneID 3772297)?
Wolbachia per cell robust z, rep 1: -4.63; Wolbachia per cell robust z, rep 2: -0.132; Wolbachia per cell robust z, rep 3: 0.363; Call: inactive

How did the screen score CG3626 (GeneID 31377) #1?
Wolbachia per cell robust z, rep 1: -0.111; Wolbachia per cell robust z, rep 2: 0.406; Wolbachia per cell robust z, rep 3: 0.158; Call: inactive

What is on record for CG3626 (GeneID 31377) #2?
Wolbachia per cell robust z, rep 1: -0.349; Wolbachia per cell robust z, rep 2: -0.116; Wolbachia per cell robust z, rep 3: 1.82; Call: inactive

With CG7706 (GeneID 42244) #1, what was measured?
Wolbachia per cell robust z, rep 1: -0.295; Wolbachia per cell robust z, rep 2: -0.164; Wolbachia per cell robust z, rep 3: 0.516; Call: inactive

For CG7706 (GeneID 42244) #2, what was measured?
Wolbachia per cell robust z, rep 1: -0.505; Wolbachia per cell robust z, rep 2: 0.0716; Wolbachia per cell robust z, rep 3: -11.3; Call: inactive

Records listed above marked active:
X11L (GeneID 252671) #2 — Wolbachia per cell robust z, rep 1 = -1.72; Wolbachia per cell robust z, rep 2 = 0.403; Wolbachia per cell robust z, rep 3 = -3.23; Call = active
Mvl (GeneID 42490) — Wolbachia per cell robust z, rep 1 = -5.74; Wolbachia per cell robust z, rep 2 = -8.91; Wolbachia per cell robust z, rep 3 = -3.19; Call = active
